{"source": "PubChem BioAssay AID624099 (ICCB-Longwood, 2012)", "screen": "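Knock-downs relieving repression by E2 of an HPV18 LCR luciferase reporter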 (primary screen)", "system": "human C33A cervical carcinoma cells (HPV-negative) stably expressing BPV1 E2 and an HPV18 LCR luciferase reporter", "reagent": "siRNA pool against human genes, 40 nM", "time to read-out": "72 h", "read-out": "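HPV18 LCR reporter light per well, converted to plate-wise z-scores that exclude control wells, and averaged over triplicate plates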", "reading the numbers": "mean z-score and z-score: higher = stronger reporter signal, weaker E2 silencing", "call rule": "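Hit if mean z-score reaches 2 and two or more of three replicate z-scores also reach 2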", "note": "Here is an unselected part of about 21,000 reagents tested. 497 of them (2.4%) count as active. 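Higher z means weaker E2 silencing; only reporter increases were scored, and knock-downs that hurt cell survival may mask genuine repressor factors.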 Unmarked entries are inactive. The numbers tell different reagents against one gene apart."}
{"target":"RNF130","reagent":1,"mean z-score":0.18,"z-score, replicate A":-0.31,"z-score, replicate B":0.35,"z-score, replicate C":0.5}
{"target":"EPOR","reagent":1,"mean z-score":0.72,"z-score, replicate A":0.54,"z-score, replicate B":0.67,"z-score, replicate C":0.95}
{"target":"SYNGR3","reagent":1,"mean z-score":0.63,"z-score, replicate A":0.94,"z-score, replicate B":0.46,"z-score, replicate C":0.48}
{"target":"MNX1","reagent":1,"mean z-score":-0.21,"z-score, replicate A":0.26,"z-score, replicate B":-0.49,"z-score, replicate C":-0.41}
{"target":"SCAND1","reagent":1,"mean z-score":0.22,"z-score, replicate A":0.53,"z-score, replicate B":0.23,"z-score, replicate C":-0.11}
{"target":"KLF10","reagent":1,"mean z-score":-0.34,"z-score, replicate A":-0.37,"z-score, replicate B":-0.36,"z-score, replicate C":-0.3}
{"target":"LOC389233 (retired record)","reagent":1,"mean z-score":-1.89,"z-score, replicate A":-1.88,"z-score, replicate B":-1.51,"z-score, replicate C":-2.27}
{"target":"MYBL2","reagent":1,"mean z-score":-0.29,"z-score, replicate A":-0.2,"z-score, replicate B":-0.18,"z-score, replicate C":-0.49}
{"target":"GON4L","reagent":1,"mean z-score":-0.75,"z-score, replicate A":-1.22,"z-score, replicate B":-0.39,"z-score, replicate C":-0.63}
{"target":"NDUFB8","reagent":1,"mean z-score":-0.86,"z-score, replicate A":-0.86,"z-score, replicate B":-0.97,"z-score, replicate C":-0.75}
{"target":"MED4","reagent":1,"mean z-score":-2.24,"z-score, replicate A":-2.24,"z-score, replicate B":-2.33,"z-score, replicate C":-2.16}
{"target":"DIO1","reagent":1,"mean z-score":0.38,"z-score, replicate A":0.41,"z-score, replicate B":0.63,"z-score, replicate C":0.09}
{"target":"RFX3","reagent":1,"mean z-score":-1.33,"z-score, replicate A":-1.48,"z-score, replicate B":-1.48,"z-score, replicate C":-1.02}
{"target":"ZNF202","reagent":1,"mean z-score":0.18,"z-score, replicate A":0.11,"z-score, replicate B":-0.02,"z-score, replicate C":0.47}
{"target":"OCRL","reagent":1,"mean z-score":-1,"z-score, replicate A":-0.73,"z-score, replicate B":-1.18,"z-score, replicate C":-1.1}
{"target":"CDAN1","reagent":1,"mean z-score":-0.19,"z-score, replicate A":-0.16,"z-score, replicate B":-0.19,"z-score, replicate C":-0.22}
{"target":"BRD4","reagent":1,"mean z-score":"8.91 (active)","z-score, replicate A":9.5,"z-score, replicate B":8.82,"z-score, replicate C":8.4}
{"target":"NPRL2","reagent":1,"mean z-score":1.2,"z-score, replicate A":1.01,"z-score, replicate B":1.18,"z-score, replicate C":1.41}
{"target":"CTAGE1","reagent":1,"mean z-score":1.03,"z-score, replicate A":0.94,"z-score, replicate B":0.82,"z-score, replicate C":1.32}
{"target":"CTAGE1","reagent":2,"mean z-score":0.85,"z-score, replicate A":0.78,"z-score, replicate B":1.08,"z-score, replicate C":0.68}
{"target":"NBEAL1","reagent":1,"mean z-score":1.31,"z-score, replicate A":1.6,"z-score, replicate B":1.36,"z-score, replicate C":0.96}
{"target":"NBEAL1","reagent":2,"mean z-score":0.31,"z-score, replicate A":0.54,"z-score, replicate B":0.25,"z-score, replicate C":0.14}

Ordered by “z-score, replicate C” (lowest first): 3 of the entries above.
{"target":"OCRL","reagent":1,"mean z-score":-1,"z-score, replicate A":-0.73,"z-score, replicate B":-1.18,"z-score, replicate C":-1.1}
{"target":"CDAN1","reagent":1,"mean z-score":-0.19,"z-score, replicate A":-0.16,"z-score, replicate B":-0.19,"z-score, replicate C":-0.22}
{"target":"ZNF202","reagent":1,"mean z-score":0.18,"z-score, replicate A":0.11,"z-score, replicate B":-0.02,"z-score, replicate C":0.47}
